A mixed list of measured activities; the numbers were collected in NIAID ChemDB.

All rows: tests in culture

Neighbouring rows are from separate reports. ECn is the concentration giving n% inhibition of infection, replication or growth. A number after MIC or MFC names an inhibition level or a share of isolates. Percent inhibition refers to the dose given; in toxicity tests it is the harm to the cells. Blank or dashed fields: not listed here. Fold resistance has wild type as its base. Zone: diameter of growth inhibition.

smiles	species	strain	mutations	cell line	read by	measure	dose	result
CC(C)=CCN1Cc2cc(Cl)cc3[nH]c(=S)n(c23)C[C@@H]1C	HIV-1	-	RT-K70R Y181C	MT-4	-	EC95	-	>3 µM
COc1cc2oc(=O)ccc2cc1CC(O)C(C)(C)O	Pseudomonas aeruginosa	-	-	-	agar diffusion	zone	250 µg/disc	8 mm
CN(C)c1cc(NC(=O)CNC(C)(C)C)c(O)c2c1C[C@H]1C[C@H]3[C@H](N(C)C)C(=O)C(C(N)=O)=C(O)[C@@]3(O)C(=O)C1=C2O	Mycobacterium massiliense	X34	-	-	broth dilution	MIC	-	1 µg/mL
C[C@@H](c1nc(-c2ccc(C#N)cc2)cs1)[C@](O)(Cn1cnnc1)c1ccc(F)cc1F	Candida albicans	Isogenic isolate 2 MDR1 (12X)	-	-	-	MIC	-	0.004 µg/mL
C#CC[C@@H](C(=O)N[C@H](/C=C/C(=O)OCC)C[C@@H]1CCNC1=O)n1cccc(NC(=O)c2cc(C)on2)c1=O	Rhinovirus	Serotype 73	-	H1-HELA	cytopathic effect / XTT	inhibition	0.117 µM	90%
O=C(NC(=O)c1c(F)cccc1F)Nc1cc(Cl)c(OC(F)(F)C(F)C(F)(F)F)cc1Cl	Encephalitozoon intestinalis	-	-	RK-13	-	inhibition	1.25 µg/mL	3.5%
Nc1nc2c(ncn2COCOCP(=O)(O)O)c(=O)[nH]1	Parainfluenza virus	C243 (TYPE 3)	-	-	neutral red	EC50	-	3 µg/mL
COC(=O)Nc1nc2ccc(C(=O)c3ccccc3)cc2[nH]1	Encephalitozoon intestinalis	-	-	RK-13	-	inhibition	0.01 µg/mL	64.8%
Nc1ccn([C@@H]2C[C@H](CO)[C@@H](O)[C@H]2O)c(=O)n1	Vesicular stomatitis virus	-	-	HEP-2	cytopathic effect	EC50	-	200 µg/mL
CO[C@@H]1[C@H](O)[C@@H](C)O[C@@H](OC[C@H]2[C@@H]3O[C@H]3/C=C/C(=O)[C@@](C)(O)C[C@H](C)[C@@H](O[C@@H]3O[C@H](C)C[C@H](OC)[C@H]3O)[C@@H](C)/C=C/C(=O)O[C@@H]2C)[C@@H]1OC	Herpes simplex virus 1	KOS	-	HeLa	cytopathic effect	EC50	-	>200 µg/mL
Nc1ncnc2c1ncn2[C@H]1C=C[C@H](O)[C@@H]1O	Measles virus	-	-	CV-1	cytopathic effect	EC50	-	1 µg/mL
C=CCc1ccc(O)c(-c2ccc(O)c(CC=C)c2)c1	Candida albicans	YL 366	-	-	broth dilution	MIC	-	64 µg/mL
C[C@H](Cc1ccc(O)c(O)c1)[C@@H](C)Cc1ccc(O)c(O)c1	Candida albicans	CCC 130-2000	-	-	broth dilution	MIC100	-	250 µg/mL
CC[C@H]1OC(=O)[C@H](C)[C@@H](O[C@H]2C[C@@](C)(OC)[C@@H](O)[C@H](C)O2)[C@H](C)[C@@H](O[C@H]2O[C@@H](C)C[C@@H](N(C)C)[C@@H]2O)[C@](C)(O)C[C@@H](C)C(=O)[C@H](C)[C@@H](O)[C@]1(C)O	Herpes simplex virus 1	KOS	-	HeLa	cytopathic effect	EC50	-	>200 µg/mL
C[C@@H]1CN(c2c(F)c(N)c3c(=O)c(C(=O)O)cn(C4CC4)c3c2F)C[C@H](C)N1	Streptococcus pneumoniae	Clinical isolate SP30	-	-	-	MIC	-	0.25 µg/mL
CCOC(=O)Nc1cc2c(c(N)n1)N=C(c1ccc(OC)c(OC)c1)CO2	Encephalitozoon intestinalis	-	-	RK-13	-	inhibition	0.01 µg/mL	10%
CO[C@H]1/C=C/O[C@@]2(C)Oc3c(C)c(O)c4c(O)c(c(/C=N/N5CCN(C)CC5)c(O)c4c3C2=O)NC(=O)/C(C)=C\C=C\[C@H](C)[C@H](O)[C@@H](C)[C@@H](O)[C@@H](C)[C@H](OC(C)=O)[C@@H]1C	Staphylococcus aureus	ATCC 29213	-	-	-	MIC	-	0.0078 µg/mL
CC[C@H]1OC(=O)[C@H](C)[C@@H](O[C@H]2C[C@@](C)(OC)[C@@H](O)[C@H](C)O2)[C@H](C)[C@@H](O[C@@H]2O[C@H](C)C[C@H](N(C)C)[C@H]2O)[C@](C)(OC)C[C@@H](C)C(=O)[C@H](C)[C@@H](O)[C@]1(C)O	Mycobacterium abscessus	AC1	-	-	broth dilution	MIC	-	1 µg/mL
Cc1ncc([N+](=O)[O-])n1CCO	Encephalitozoon intestinalis	-	-	RK-13	-	inhibition	1 µg/mL	36.2%
Nc1ccc(S(=O)(=O)c2ccc(N)cc2)cc1	Mycobacterium ulcerans	Isolate 94-886	-	-	-	MBC	-	8 µg/mL
CCO/N=C/c1ccc(OCCC2CCN(c3ccc(C)nn3)CC2)cc1	Rhinovirus	106F (LDL receptor group 30)	-	KB	neutral red	EC50	-	0.272 µM
CN[C@@H]1[C@@H](O)[C@@H](O[C@@H]2[C@@H](O)[C@H](O[C@H]3OC([C@H](C)N)=CC[C@H]3N)[C@@H](N)C[C@H]2N)OC[C@]1(C)O	Herpes simplex virus 1	KOS	-	HeLa	cytopathic effect	EC50	-	>200 µg/mL
NC(=O)c1nc(F)c[nH]c1=O	Influenza A virus	Influenza A/Ibaraki/1/90 (H3N2)	-	MDCK	plaque count	EC50	-	0.3 µg/mL
CC1(C)[C@@H](O[C@H]2O[C@H](C(=O)O)[C@@H](O)[C@H](O)[C@H]2O[C@@H]2O[C@H](C(=O)O)[C@@H](O)[C@H](O)[C@H]2O)CC[C@]2(C)[C@H]3C(=O)C=C4[C@@H]5C[C@@](C)(C(=O)O)CC[C@]5(C)CC[C@@]4(C)[C@]3(C)CC[C@@H]12	Dengue virus	Type 1 (Hawaii)	-	VERO	virus yield	EC50	-	<316 µg/mL
CO[C@H]1/C=C/O[C@@]2(C)Oc3c(C)c(O)c4c(=O)c(c5oc6cc(N7CCN(CC(C)C)CC7)cc(=O)c6nc5c4c3=C2O)NC(=O)/C(C)=C\C=C\[C@H](C)[C@H](O)[C@@H](C)[C@@H](O)[C@@H](C)[C@H](OC(C)=O)[C@@H]1C	Staphylococcus aureus	ATCC 29213	-	-	-	MIC	-	0.0313 µg/mL
CCCCCCCCCCCCCCCC(=O)OCC(O)COC(=O)CCCCCCCCCCCCCCC	Herpes simplex virus 1	KOS	-	HeLa	cytopathic effect	EC50	-	>200 µg/mL
CCOC(=O)Nc1cc2[nH]c(=O)c(-c3ccccc3)nc2c(NC(c2ccccc2)c2ccccc2)n1	Encephalitozoon intestinalis	-	-	RK-13	-	inhibition	1 µg/mL	78.8%
CC[C@@H]1[C@@H](C)O[C@@](O)([C@@H](C)[C@H](O)[C@H](C)[C@H]2OC(=O)/C=C/C=C/[C@H](C)[C@@H]([C@@H](C)[C@@H](O)[C@H](C)[C@@]3(O)C[C@@H](O[C@H]4C[C@H](O)[C@H](O)[C@H](C)O4)[C@H](CC)[C@@H](C)O3)OC(=O)/C=C/C=C/[C@@H]2C)C[C@H]1O[C@H]1C[C@H](O)[C@H](O)[C@H](C)O1	Herpes simplex virus 1	KOS	-	HeLa	cytopathic effect	EC50	-	>200 µg/mL
CN(C)[C@@H]1C(=O)C(C(N)=O)=C(O)[C@@]2(O)C(=O)C3=C(O)c4c(O)c(NC(=O)CN5CCOCC5)cc(F)c4C[C@H]3C[C@@H]12	Streptococcus pneumoniae	160-tet	-	-	agar diffusion	MIC	-	1 µg/mL
NC(=O)c1ncn([C@@H]2O[C@H](CO)[C@@H](O)[C@H]2O)n1	Measles virus	SA	-	CV-1	cytopathic effect	EC50	-	20 µg/mL
Cc1c(CNc2cccc3c2CCCC3)cnc2nc(N)nc(N)c12	Encephalitozoon intestinalis	-	-	RK-13	-	inhibition	1 µg/mL	74.6%
COc1cc(Cc2cnc(N)nc2N)cc(OC)c1OCCCNc1ccc(S(=O)(=O)c2ccc(N)cc2)cc1	Mycobacterium ulcerans	ATCC 19423	-	-	-	MIC	-	2 µg/mL
Nc1ccn(C[C@@H](CO)OCP(=O)(O)O)c(=O)n1	Adenovirus	WT 300 (TYPE 5)	-	-	cytopathic effect	EC50	-	4 µg/mL
CO[C@@H]1[C@H](OC(=O)NC(=O)CCl)CC[C@]2(CO2)[C@H]1[C@@]1(C)O[C@@H]1CC=C(C)C	Encephalitozoon intestinalis	-	-	RK-13	-	inhibition	0.0005 µg/mL	71.2%
CC(C)(CO)C(=O)SCCOP(=O)(NCc1ccccc1)OC[C@H]1O[C@@H](n2cnc3c(=O)[nH]c(N)nc32)[C@](C)(O)[C@@H]1O	Hepatitis C virus	GT1a	Q30H	Replicon cells	replicon	fold resistance	-	1.07
Nc1nc2c(ncn2CCOCP(=O)(O)O)c(=O)[nH]1	Parainfluenza virus	C243 (TYPE 3)	-	-	cytopathic effect	EC50	-	32 µg/mL

A second listing of 4 rows from above:

smiles,species,strain,mutations,cell line,read by,measure,dose,result
C[C@H](Cc1ccc(O)c(O)c1)[C@@H](C)Cc1ccc(O)c(O)c1,Candida albicans,CCC 130-2000,-,-,broth dilution,MIC100,-,250 µg/mL
CC[C@H]1OC(=O)[C@H](C)[C@@H](O[C@H]2C[C@@](C)(OC)[C@@H](O)[C@H](C)O2)[C@H](C)[C@@H](O[C@H]2O[C@@H](C)C[C@@H](N(C)C)[C@@H]2O)[C@](C)(O)C[C@@H](C)C(=O)[C@H](C)[C@@H](O)[C@]1(C)O,Herpes simplex virus 1,KOS,-,HeLa,cytopathic effect,EC50,-,>200 µg/mL
CC(C)(CO)C(=O)SCCOP(=O)(NCc1ccccc1)OC[C@H]1O[C@@H](n2cnc3c(=O)[nH]c(N)nc32)[C@](C)(O)[C@@H]1O,Hepatitis C virus,GT1a,Q30H,Replicon cells,replicon,fold resistance,-,1.07
O=C(NC(=O)c1c(F)cccc1F)Nc1cc(Cl)c(OC(F)(F)C(F)C(F)(F)F)cc1Cl,Encephalitozoon intestinalis,-,-,RK-13,-,inhibition,1.25 µg/mL,3.5%